Substitutions are numbered along the chain they refer to.
B1: SD1036 (VHH)
VHH: EVQLVESGGGLVQAGGSLKLSCAASGRTYAMGWFRQAPGKEREFVAHINALGTRTYYSDSVKGRFTISRDNAKNTEYLEMNNLKPEDTAVYYCTAQGQWRAAPVAVAAEYEFWGQGTQVTVSS
B2: SD3023 (VHH)
VHH: B1 VHH with V5L, K19R, G32S, A46S, S58A, A72S, E76L, E79Q, N82S, K84R
B3: SD3024 (VHH)
VHH: EVQLLESGGGLVQPGGSLRLSCAASGRTYAMSWFRQAPGKEREFVSHINALGTRTYYADSVKGRFTISRDNSKNTLYLQMNSLRAEDTAVYYCTAQGQWRAAPVAVAAEYEFWGQGTQVTVSS
B4: SD3025 (VHH)
VHH: B3 VHH with S46A
B5: SD3026 (VHH)
VHH: B3 VHH with H47A
B6: SD3027 (VHH)
VHH: B3 VHH with P14A, H47A, A85P
B7: SD3028 (VHH)
VHH: B3 VHH with P14A, S46A, A85P
B8: SD3094 (VHH)
VHH: B3 VHH with S32G, S46A, Q118L
B9: SD3095 (VHH)
VHH: B3 VHH with S32G, S46A, A85P, Q118L
B10: SD3096 (VHH)
VHH: B3 VHH with S32G, S46A, L76V, A85P, Q118L
B11: SD3097 (VHH)
VHH: B3 VHH with S32G, S46A, H47A, Q118L
B12: SD3098 (VHH)
VHH: B3 VHH with S32G, S46A, H47A, A85P, Q118L
B13: SD1046 (VHH)
VHH: EVQLVESGGGLVQAGDSLRISCAASGRTLSIYSMGWFRQAPGKEREFVATIGWNSGRTFYPDSLKGRFTISRDNARNTLYLQMNNLRPEDTAVYYCAAAKGPLRLSSQADYWGQGTQVTVSS
B14: SD3041 (VHH)
VHH: EVQLVESGGGLVQPGGSLRLSCAASGRTLSIYSMSWFRQAPGKEREFVSAIGWNSGRTYYADSVKGRFTISRDNSKNTLYLQMNSLRAEDTAVYYCAAAKGPLRLSSQADYWGQGTQVTVSS
B15: SD3042 (VHH)
VHH: B14 VHH with A50T
B16: SD3043 (VHH)
VHH: B14 VHH with S49A, A50T
B17: SD3044 (VHH)
VHH: B14 VHH with A50T, S75A, K76R
B18: SD3045 (VHH)
VHH: B14 VHH with P14A
B19: SD3046 (VHH)
VHH: B14 VHH with P14A, A50T
B20: SD3047 (VHH)
VHH: B14 VHH with P14A, S49A, A50T
B21: SD3048 (VHH)
VHH: B14 VHH with P14A, A50T, S75A, K76R
B22: SD3067 (VHH)
VHH: B14 VHH with S35G, S49A, A50T, Y59F, A61P, V64L, Q117L
B23: SD3013 (VHH)
VHH: EVQLVESGGGVVQPGGSLRLSCAASISIFDIYAMDWYRQAPGKQRELVATSFRDGSTYYADSVKGRFTISRDNSKNTLYLQMNSLRAEDTAVYLCHVSLYRDPLGVAGGMGVYWGKGALVTVSS
B24: SD3014 (VHH)
VHH: B23 VHH with T50V
B25: SD3017 (VHH)
VHH: B23 VHH with D35H
B26: SD3018 (VHH)
VHH: B23 VHH with D35H, T50V
B27: SD3019 (VHH)
VHH: B23 VHH with D35H, A49S, T50V
B28: SD3022 (VHH)
VHH: B23 VHH with T50V, A87P, M110I
B29: SD3029 (VHH)
VHH: B23 VHH with V11L, A24V, E46D, Y58N, S74A, R86K, A87P, M110L
B30: SD3030 (VHH)
VHH: B23 VHH with V11L, A24V, E46D, Y58N, S74A, R86K, A87P, M110I
B31: SD3031 (VHH)
VHH: B23 VHH with V11L, A24V, E46D, Y58N, S74A, R86K, A87P, M110V
B32: SD3078 (VHH)
VHH: B23 VHH with A49S, T50V, L94Y, M110L, K116Q, A118T
B33: SD3079 (VHH)
VHH: B23 VHH with T50V, L94Y, M110L, K116Q, A118T
B34: SD3080 (VHH)
VHH: B23 VHH with T50V, A87P, L94Y, M110L, K116Q, A118T
B35: SD3089 (VHH)
VHH: B23 VHH with D35H, A49S, T50V, L94Y, M110L, K116Q, A118T

What follows are binders tested against hemagglutinin (HA) of influenza A/Hong Kong/1/68-ma (H3N2) (influenza A virus A/Hong Kong/1/68-ma …) (assay: cell-based or functional assay).

| Binder | VNA IC50 |
| --- | --- |
| B1 | 78 nM |
| B2 | 206 nM |
| B3 | 206 nM |
| B4 | 280 nM |
| B5 | 36 nM |
| B6 | 30 nM |
| B7 | 280 nM |
| B8 | 20 nM |
| B9 | 26 nM |
| B10 | 20 nM |
| B11 | 32 nM |
| B12 | 20 nM |
| B13 | 26 nM |
| B14 | 858 nM |
| B15 | 253 nM |
| B16 | 466 nM |
| B17 | 253 nM |
| B18 | 632 nM |
| B19 | 253 nM |
| B20 | 253 nM |
| B21 | 343 nM |
| B22 | 8 nM |

What follows are binders tested against hemagglutinin (HA) of influenza A/Puerto Rico/8/34-ma (H1N1) (influenza A virus A/Puerto Rico/8/34-ma …) (assay: cell-based or functional assay).

| Binder | VNA IC50 |
| --- | --- |
| B23 | 8 nM |
| B24 | 4 nM |
| B25 | 6 nM |
| B26 | 3 nM |
| B27 | 6 nM |
| B28 | 6 nM |
| B29 | 2 nM |
| B30 | 6 nM |
| B31 | 15 nM |
| B32 | 3 nM |
| B33 | 3 nM |
| B34 | 3 nM |
| B35 | 2 nM |

Reference: US20190359693A1, “Binding molecules directed against influenza hemagglutinin and uses thereof” (Janssen / Centocor, published 2019)
